Compound potency records, mixed from different reports. Data source: NIAID ChemDB in PubChem.

Shared fields: tests in culture; species: Tacaribe virus

ECn is the concentration giving n% inhibition of infection, replication or growth.

{"SMILES": "Nc1nccc2c1ncn2[C@@H]1CC[C@@H](O)[C@H]1O", "read-out": "MIC", "result": "0.01 µg/mL"}
{"SMILES": "Nc1ccn([C@@H]2C[C@H](CO)[C@@H](O)[C@H]2O)c(=O)n1", "read-out": "EC50", "method": "cytopathic effect", "cells": "VERO", "result": "0.3 µg/mL"}
{"SMILES": "Nc1ncnc2c1ncn2[C@@H]1C=C(CO)[C@@H](O)[C@H]1O", "read-out": "EC50", "method": "cytopathic effect", "cells": "VERO", "result": "1.5 µg/mL"}
{"SMILES": "O=c1ccn([C@@H]2O[C@H](CO)[C@](O)(C(F)(F)F)[C@H]2O)c(=O)[nH]1", "read-out": "EC50", "method": "cytopathic effect", "cells": "VERO", "result": ">200 µg/mL"}
{"SMILES": "Cc1cn(CCCC(O)CF)c(=O)[nH]c1=O", "read-out": "EC50", "method": "cytopathic effect", "cells": "VERO", "result": ">200 µg/mL"}
{"SMILES": "NC(N)=Nc1ccccc1SSc1ccccc1N=C(N)N", "read-out": "EC50", "method": "virus yield", "cells": "VERO", "strain": "11573", "result": "3.6 µM"}
{"SMILES": "Cc1cn([C@@H]2O[C@H](CO)[C@](O)(C(F)(F)F)[C@H]2O)c(=O)[nH]c1=O", "read-out": "EC50", "method": "cytopathic effect", "cells": "VERO", "result": ">50 µg/mL"}
{"SMILES": "Nc1nccc2c1ncn2[C@@H]1C=C[C@@H](O)[C@H]1O", "read-out": "MIC", "result": "3 µg/mL"}
{"SMILES": "c1ccc(SSc2ccccn2)nc1", "read-out": "EC50", "method": "virus yield", "cells": "VERO", "strain": "11573", "result": "37.5 µM"}
{"SMILES": "Nc1ccn(CCCC(O)CF)c(=O)n1", "read-out": "EC50", "method": "cytopathic effect", "cells": "VERO", "result": ">200 µg/mL"}
{"SMILES": "C#C[C@@H](O)C1=C[C@@H](n2cnc3c(N)ncnc32)[C@H](O)[C@@H]1O", "read-out": "EC50", "method": "cytopathic effect", "cells": "VERO", "result": ">50 µg/mL"}
{"SMILES": "O=[N+]([O-])c1cccc(SSc2cccc([N+](=O)[O-])c2)c1", "read-out": "EC50", "method": "virus yield", "cells": "VERO", "strain": "11573", "result": "12.5 µM"}
{"SMILES": "CC[C@@H](O)C1=C[C@@H](n2cnc3c(N)ncnc32)[C@H](O)[C@@H]1O", "read-out": "EC50", "method": "cytopathic effect", "cells": "VERO", "result": ">50 µg/mL"}
{"SMILES": "Nc1nccc2c1ncn2[C@@H]1C=C(CO)[C@@H](O)[C@H]1O", "read-out": "MIC", "result": "1 µg/mL"}

The first 2 rows once more:

SMILES	read-out	method	cells	strain	result
Nc1nccc2c1ncn2[C@@H]1CC[C@@H](O)[C@H]1O	MIC	-	-	-	0.01 µg/mL
Nc1ccn([C@@H]2C[C@H](CO)[C@@H](O)[C@H]2O)c(=O)n1	EC50	cytopathic effect	VERO	-	0.3 µg/mL

Lines come from different laboratories, so protocols vary. An empty or dashed field is not shown.